Compound potency records, mixed from different reports. Data source: NIAID ChemDB in PubChem.

Shared fields: target-level tests; agent: Herpes simplex virus 1; target: DNA polymerase

Blank or dashed fields: not listed here.

compound,strain,endpoint,tested at,result
CN(C)n1cc(C(=O)NCc2ccc(Cl)cc2)c(=O)c2cc(C#CCO)ccc21,-,IC50,-,0.86 µM
NC(=O)c1ncn([C@@H]2O[C@H](COP(=O)(O)O)[C@@H](O)[C@H]2O)n1,-,IC50,-,<2000 µM
Nc1nc2c(ncn2CCC(O)CO)c(=O)[nH]1,-,Ki,-,1.5 µM
O=C(NCc1ccc(Cl)cc1)c1n[nH]c2ccccc2c1=O,-,IC50,-,20.8 µM
CN(C)n1cc(C(=O)NCc2ccc(Cl)cc2)c(=O)c2cc(CN3CCOCC3)ccc21,-,IC50,-,0.72 µM
Nc1nc2c(ncn2[C@@H]2O[C@H](COP(=O)(O)OP(=O)(O)O)[C@@H](O)[C@H]2O)c(=O)[nH]1,-,inhibition,2000 µM,96.9%
NC1=NC2C(C=CN2CC(CO)CCOP(=O)(O)OP(=O)(O)OP(=O)(O)O)C(=O)N1,-,Ki,-,2.8 µM
Nc1nc2c(ncn2COCCOP(=O)(O)OP(=O)(O)OP(=O)(O)O)c(=O)[nH]1,KOS,Ki,-,0.013 µM
Nc1nc(N)c2ncn([C@@H]3O[C@H](COP(=O)(O)OP(=O)(O)O)[C@@H](O)[C@H]3O)c2n1,-,inhibition,2000 µM,96.1%
O=C(NCc1ccc(Cl)cc1)c1c[nH]c2c(F)cccc2c1=O,-,IC50,-,2.9 µM
Nc1nc2c(ncn2CCC(CO)COP(=O)(O)OP(=O)(O)OP(=O)(O)O)c(=O)[nH]1,-,Ki,-,16 µM
O=c1[nH]cnc2c1ncn2[C@H]1CC[C@@H](COP(=O)(O)O)O1,-,IC50,-,<2000 µM
O=C(NCc1ccc(Cl)cc1)c1cn(N2CCCC2)c2ccc(CN3CCOCC3)cc2c1=O,-,IC50,-,1.3 µM
Cn1cc(C(=O)NCc2ccc(Cl)cc2)c(=O)c2cc(/C=C\CO)cc(F)c21,-,IC50,-,1 µM
CCCCCC[C@@H]([C@H](C)O)n1cnc2c(N)ncnc21,-,IC50,-,>50 µM
O=C(NCc1ccc(Cl)cc1)c1cn(N2CCOCC2)c2ccc(CN3CCOCC3)cc2c1=O,-,IC50,-,0.31 µM
Nc1nc2c(ncn2COCCOP(=O)(O)OP(=O)(O)OP(=O)(O)O)c(=O)[nH]1,-,Ki,-,0.003 µM

A second listing of 2 rows from above:

compound | strain | endpoint | tested at | result
Nc1nc2c(ncn2[C@@H]2O[C@H](COP(=O)(O)OP(=O)(O)O)[C@@H](O)[C@H]2O)c(=O)[nH]1 | - | inhibition | 2000 µM | 96.9%
CCCCCC[C@@H]([C@H](C)O)n1cnc2c(N)ncnc21 | - | IC50 | - | >50 µM

ICn: concentration for n% inhibition. Rows are shuffled and stem from different studies. Percent inhibition refers to the dose given; in toxicity tests it is the harm to the cells.